# Test results: PubChem BioAssay AID1053136 (The Scripps Research Institute Molecular Screening Center, 2014)
# The list shows a part of the results, in another mix than the full data. The source made the active and inactive calls. No stated cut-off is given here; in the data, active means inhibition above about 14%; inactive means the rest.
# System: HIV-1 integrase / human LEDGF/p75 complex
# Test: inhibitors of HIV-1 IN-LEDGF/p75 DNA integration, confirmation, biochemical, TR-FRET (AID 1053136)
# Details: TR-FRET LEDGF/p75-dependent HIV-1 integration, at 3.7 µM, hits give high values
row,Compound,inhibition
1,Nc1cccc2c([As](=O)(O)O)cccc12,active: 78.1%
2,Nc1cccc2ccc([As](=O)(O)O)cc12,active: 43.5%
